Taken from: PubChem BioAssay AID504761 (Drosophila RNAi Screening Center, 2011)
The screen tested about 22,000 reagents; this is a random part of those with a known target gene and a result. In the full data, 116 (0.52%) are marked active. 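Calls depend on retest data that are not deposited; infection was ranked per plate without normalising between plates; the unit of the infection score is not given.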 The raw values are shown without normalisation. A number with no mark means an inactive call. Reagents against one gene are numbered here. A plus sign joins genes that one reagent is predicted to hit. The record does not give: the amount of reagent, the time to read-out.

Aim: 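Genome-wide fly cell screen for genes dengue virus requires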 (primary screen)
System: D.Mel-2 cells from Drosophila
Reagent: long dsRNA against Drosophila genes
Treatment: infection with dengue virus type 2; dose and infection time not stated
Measurement: 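Per well on two replicate plates, imaging gave the percent of cells positive for viral envelope protein, ranked by infection, and a nuclear count of cells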
Scale: infection score: higher = more virus-infected cells; cell count: higher = more cells in the well
Hit rule: 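Very low infection ranking in both replicate wells (chance probability at most 0.065), then a retest showing infection dropped 1.5-fold or more at p below 0.05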
Calls: active = confirmed: knock-down lowers infection; inactive = not picked or not confirmed

| gene | reagent no. | infection score, replicate 1 | infection score, replicate 2 | cell count, replicate 1 | cell count, replicate 2 |
| --- | --- | --- | --- | --- | --- |
| T3dh + pgc | 1 | 16.7 | 17.4 | 6143 | 5977 |
| CG5781 | 1 | 4.69 | 11 | 5931 | 5301 |
| CG30484 | 1 | 5.33 | 4.08 | 6156 | 6272 |
| Reph | 1 | 1.75 | 2.39 | 6528 | 6574 |
| Reph | 2 | 1.9 | 6.67 | 6271 | 2609 |
| Reph | 3 | 9.71 | 5.99 | 5263 | 1903 |
| her | 1 | 12.7 | 8.69 | 6294 | 5710 |
| CG1640 | 1 | 2.78 | 7.95 | 6621 | 6391 |
| CG17732 | 1 | 4.06 | 7.08 | 6572 | 6555 |
| phtm | 1 | 7.82 | 4.69 | 2789 | 4435 |
| phtm | 2 | 17.9 | 5.44 | 6325 | 6420 |
| CtsL1 | 1 | 5.98 | 2.49 | 6142 | 6340 |
| CtsL1 | 2 | 34.9 | 23.7 | 5185 | 5826 |
| CtsL1 | 3 | 6.23 | 20.5 | 1075 | 5624 |
| CG14760 | 1 | 2.38 | 10.8 | 6308 | 5903 |
| CG14760 | 2 | 8.49 | 8.65 | 3804 | 5005 |
| Indy | 1 | 7.32 | 12.1 | 5685 | 6532 |
| CG5377 | 1 | 4.45 | 8.54 | 1169 | 4824 |
| CG5377 | 2 | 23.2 | 19.4 | 5789 | 5891 |
| CG13443 | 1 | 0.82 | 0.45 | 6370 | 6252 |
| CG42304 + Snup | 1 | 8.28 | 28.6 | 6729 | 5971 |
| CG42304 + Snup | 2 | 6.88 | 18.6 | 6265 | 1796 |
| CG42304 + Snup | 3 | 0.92 | 2.12 | 6226 | 6477 |
| CG42304 + Snup | 4 | 3.21 | 4.22 | 7072 | 6844 |
| Ir85a | 1 | 3.55 | 27.9 | 6450 | 5638 |
| Ir85a | 2 | 16.4 | 12 | 6044 | 4175 |
| Grasp65 | 1 | 5.76 | 6.41 | 5794 | 5773 |
| Grasp65 | 2 | 2.8 | 6.21 | 5223 | 1337 |
| ImpL2 | 1 | 7.44 | 1.86 | 6302 | 6543 |
| ImpL2 | 2 | 6.92 | 7.18 | 5850 | 5585 |
| CG42500 | 1 | 8.87 | 5.03 | 5703 | 6044 |
| ems | 1 | 2.51 | 1.62 | 5935 | 6490 |
| zyd | 1 | 0.37 | 1.91 | 5950 | 5960 |
| Spc105R | 1 | 14.1 | 7.65 | 3297 | 3923 |
| tx (retired record) | 1 | 18.4 | 1.3 | 6372 | 6480 |
| tx (retired record) | 2 | 28.6 | 14.9 | 5625 | 6124 |
| WRNexo | 1 | 2.39 | 5.81 | 6279 | 6298 |
| Egm | 1 | 17.3 | 7.93 | 5516 | 6548 |
| Egm | 2 | 5.93 | 1.77 | 5883 | 6553 |
| aph-1 | 1 | 2.84 | 2.83 | 6125 | 5910 |
| CG11807 | 1 | 2.95 | 2.43 | 6415 | 6535 |
| Tmem63 | 1 | 2.29 | 9.84 | 6363 | 6179 |
| Tmem63 | 2 | 2.19 | 8.96 | 6564 | 6398 |
| fz | 1 | 1.83 | 1.44 | 5841 | 6106 |
| CG7133 | 1 | 1.82 | 3.28 | 6487 | 6705 |
| att-ORFB + DPCoAC | 1 | 2.07 | 5.29 | 6612 | 5764 |
| SamDC | 1 | 4.07 | 9.45 | 6366 | 6797 |
| CG4360 | 1 | 10.6 | 0.39 | 4065 | 5861 |
| CG4360 | 2 | 22.9 | 4.46 | 5459 | 6412 |
| CG33969 | 1 | 8.9 | 2.56 | 6278 | 6023 |
| Cks30A | 1 | 15.3 | 7.79 | 6259 | 5870 |
| KrT95D | 1 | 2.78 | 2.33 | 6106 | 6960 |
| KrT95D | 2 | 5.22 | 10.3 | 6107 | 5618 |
| CG12134 | 1 | 13.8 | 3.97 | 6535 | 6606 |
| CG12134 | 2 | 13.2 | 12.1 | 5255 | 6283 |
| mbo | 1 | 6.07 | 27.3 | 972 | 3590 |
| Cda4 | 1 | 4.01 | 1.55 | 6081 | 5744 |
| Cda4 | 2 | 1.39 | 2.35 | 5755 | 5619 |
| Cda4 | 3 | 3.23 | 1.57 | 6070 | 5995 |
